Pooled drug test results. Numbers come from NIAID ChemDB, via PubChem.

Common to all: growth or infection tests

An empty or dashed field is not shown. ECn: concentration that inhibits the pathogen or its effect by n%. Percent inhibition refers to the dose given; in toxicity tests it is the harm to the cells. Conditions beyond the fields shown may differ between rows.

SMILES | strain | agent | dose | read-out | cells | result
CO[C@H]1O[C@H](CO)[C@@H](O)[C@@H](O)[C@@H]1n1cnc(C(C)=O)n1 |  | Yellow fever virus |  | EC50 |  | >64 µg/mL
Nc1ccn(C[C@@H](CO)OCP(=O)(O)O)c(=O)n1 | Brighton | Cowpox virus |  | EC50 | HFF | 44.7 µM
CCCCCCCCCCCCNc1nc(=O)c2[nH]cnc2c(=O)[nH]1 |  | Japanese encephalitis virus |  | EC50 | HepG2.2.15 | >500 µM
CCCCCCCCCCCCCCCCCCOCCOP1(=O)CO[C@@H](Cn2ccc(N)nc2=O)CO1 | NYC | Vaccinia virus |  | EC50 | HFF | 0.03 µM
NC(=O)c1ncn(C2OC(CO)CC2O)n1 |  | Rift valley fever virus |  | EC50 |  | 117 µg/mL
[NH3+]C12CC3CC(C1)CC(c1ccccc1)(C3)C2 | H2N2 A/Singapore/1/57 | Influenza A virus | 8 µg/mL | inhibition | MDCK | 100%
NC(=O)c1[nH]nc([C@@H]2O[C@H](CO)[C@@H](O)[C@H]2O)c1O | XJCL3 | Junin virus |  | EC50 | VERO | 2 µg/mL
CCCCCCCCCCCCCCCCOCCCOP1(=O)CO[C@@H](Cn2ccc(N)nc2=O)CO1 | Brighton | Cowpox virus |  | EC50 | HFF | 2.1 µM
NC(=O)c1nc(F)c[nH]c1=O | H2N2 OKUDA/57 | Influenza A virus |  | EC50 | MDCK | 0.013 µg/mL
Nc1nccc2c1ncn2[C@@H]1C[C@H](CO)[C@@H](O)[C@H]1O | Somalia wild type | Camelpox virus |  | EC50 | VERO 76 | 39 µM
CC(=O)c1ncn([C@@H]2CO[C@H](CO)[C@@H](O)[C@H]2O)n1 |  | Yellow fever virus |  | EC50 |  | >64 µg/mL
CC1(C)[C@@H](O[C@H]2O[C@H](C(=O)O)[C@@H](O)[C@H](O)[C@H]2O[C@@H]2O[C@H](C(=O)O)[C@@H](O)[C@H](O)[C@H]2O)CC[C@]2(C)[C@H]3C(=O)C=C4[C@@H]5C[C@@](C)(C(=O)O)CC[C@]5(C)CC[C@@]4(C)[C@]3(C)CC[C@@H]12 | Nakayama | Japanese encephalitis virus |  | EC90 | VERO | <156 µg/mL
CNC12CC3CC(C1)CC(C(C)C)(C3)C2 | H2N2 A/Singapore/1/57 | Influenza A virus | 8 µg/mL | inhibition | MDCK | 100%
CC(C)COC(=O)C(O)Cn1cnc2c(N)ncnc21 | XJCL3 | Junin virus |  | EC50 | VERO | 9 µg/mL
CCCC12CC3CC(CC(N)(C3)C1)C2 | H2N2 A/Singapore/1/57 | Influenza A virus | 1 µg/mL | inhibition | MDCK | 100%
NC(=O)c1c[se]c([C@@H]2O[C@H](CO)[C@@H](O)[C@H]2O)n1 | Zagazig 501 | Rift valley fever virus |  | EC50 | VERO 76 | 2.8 µg/mL
Nc1ccn(C[C@H]2COP(=O)(O)CO2)c(=O)n1 |  | Monkeypox virus |  | EC50 | VERO 76 | 165 µM
Nc1ccn(C[C@@H](CO)OCP(=O)(O)O)c(=O)n1 |  | Variola virus |  | EC50 | BSC | 8 µM
CCCCCCCCCCCCCCCCOCCCOP(=O)(O)CO[C@H](CO)Cn1ccc(N)nc1=O | NYC | Vaccinia virus |  | EC50 | HFF | 0.4 µM
CN(C)C(=O)/N=N/C(=O)N(C)C |  | Junin virus |  | EC50 | VERO | >100 µM
Nc1ccn(C[C@@H](CO)OCP(=O)(O)O)c(=O)n1 |  | Camelpox virus |  | EC50 | VERO 76 | 33 µM
Nc1nc(=O)c2ncn(COCCO)c2c(=O)[nH]1 |  | Japanese encephalitis virus |  | EC50 | HepG2.2.15 | >500 µM
CCCCCCCCCN1[C@H](CN)[C@@H](O)[C@H](O)[C@H]1CO |  | Japanese encephalitis virus |  | EC50 |  | >10 µM
OCCN(CCO)C12CC3CC(CC(C3)C1)C2 | H2N2 A/Singapore/1/57 | Influenza A virus | 4 µg/mL | inhibition | MDCK | 100%
Nc1ncnc2c1ncn2[C@H]1[C@H](O)[C@H](O)[C@]2(CO)O[C@H]12 | XJCL3 | Junin virus |  | EC50 | VERO | >1 µg/mL
Nc1nc(=O)c2ncn(COCCOCc3ccccc3)c2c(=O)[nH]1 |  | Japanese encephalitis virus |  | EC50 | HepG2.2.15 | 100 µM
NC(=O)c1c[se]c([C@@H]2O[C@H](CO)[C@@H](O)[C@H]2O)n1 | Trinidad donkey | Venezuelan equine encephalitis virus |  | EC50 | VERO | 6.7 µg/mL
Nc1nc2c(ncn2COCCO)c(=O)[nH]1 |  | Vaccinia virus |  | EC50 | HFF | >144 µM
Nc1nccc2c1ncn2[C@@H]1O[C@H](CO)[C@@H](O)[C@H]1O | XJCL3 | Junin virus |  | EC50 | VERO | 2.2 µg/mL
CCCCCCCCCCCCCCCCCCNc1nc(=O)c2ncn([C@@H]3O[C@H](CO)[C@@H](O)[C@H]3O)c2c(=O)[nH]1 |  | Japanese encephalitis virus |  | EC50 | HepG2.2.15 | >500 µM
CC(=O)Nc1cc2c(O)c(N=Nc3ccc(S(N)(=O)=O)cc3)c(S(=O)(=O)O)cc2cc1S(=O)(=O)O |  | Junin virus |  | EC50 | VERO | >100 µM
NCCC12CC3CC(C1)CC(CCN)(C3)C2 | H2N2 A/Singapore/1/57 | Influenza A virus | 1 µg/mL | inhibition | MDCK | 100%
NC(=O)c1ncn([C@@H]2O[C@H](CO)[C@@H](O)[C@H]2O)n1 |  | Cowpox virus |  | EC50 | HFF | >410 µM
COc1c(C)c2c(c(O)c1C/C=C(\C)CCC(=O)O)C(=O)OC2 | Somalia wild type | Camelpox virus |  | EC50 | VERO 76 | 2.5 µM
CCCCC12CC3CC(C1)CC(NC)(C3)C2 | H2N2 A/Singapore/1/57 | Influenza A virus | 8 µg/mL | inhibition | MDCK | 100%
CO[C@@H]1[C@H](OP(O)(=S)OC[C@H]2O[C@@H](n3cnc4c(N)ncnc43)C[C@@H]2O)[C@@H](CO)O[C@H]1n1ccc(=O)[nH]c1=O |  | Yellow fever virus |  | EC50 |  | >50 µM
Nc1ccn(C[C@H]2COP(=O)(O)CO2)c(=O)n1 | Zaire strain wild-type | Monkeypox virus |  | EC50 | VERO 76 | 34 µM
NC(=O)c1ncn(C2OC(CO)C3OC32)n1 |  | Rift valley fever virus |  | EC50 |  | 149 µg/mL
Nc1ncnc2c1ccn2[C@@H]1O[C@H](CO)[C@H](O)[C@H]1O | XJCL3 | Junin virus |  | EC50 | VERO | 3.1 µg/mL
CC12CC3CC(C)(C1)CC(CCC[NH3+])(C3)C2 | H2N2 A/Singapore/1/57 | Influenza A virus | 8 µg/mL | inhibition | MDCK | 100%

The first 3 rows once more:

SMILES	strain	agent	dose	read-out	cells	result
CO[C@H]1O[C@H](CO)[C@@H](O)[C@@H](O)[C@@H]1n1cnc(C(C)=O)n1		Yellow fever virus		EC50		>64 µg/mL
Nc1ccn(C[C@@H](CO)OCP(=O)(O)O)c(=O)n1	Brighton	Cowpox virus		EC50	HFF	44.7 µM
CCCCCCCCCCCCNc1nc(=O)c2[nH]cnc2c(=O)[nH]1		Japanese encephalitis virus		EC50	HepG2.2.15	>500 µM